Pooled drug test results. Numbers come from NIAID ChemDB, via PubChem.

Shared fields: growth or infection tests; organism: Mycobacterium tuberculosis

Lines come from different laboratories, so protocols vary. Blank or dashed fields: not listed here. Inhibition is in % at the dose shown (toxicity tests: loss of growth or viability). MIC bound comes from a single tested concentration. ECn: concentration that inhibits the pathogen or its effect by n%.

SMILES	read-out	method	strain	dose	result
O=[N+]([O-])c1cc(Cl)ccc1S(=O)(=O)c1ccc(Cl)c2c1NCCC2	MIC bound	resazurin	H37Rv		>6.25 µg/mL
N#C/C(=C/c1ccccc1)C(=O)O	MIC		H37Rv		>100 µg/mL
O=C1c2ccccc2-c2nc3ccccc3n21	inhibition	resazurin	H37Rv	6.25 µg/mL	12%
O=C1CCCN1CCCNCCNCc1ccccc1Sc1ccccc1CO	MIC				12.5 µM
CC(C)N=c1cc2n(-c3ccc(Cl)cc3)c3ccccc3nc-2cc1Nc1ccc(Cl)cc1	MIC	broth dilution / resazurin	MDR12		2 µg/mL
Cc1ccc(Nc2ccc(O)c3c2C(=O)c2c(O)ccc(Nc4ccc(C)cc4)c2C3=O)cc1	MIC		H37Rv		>100 µg/mL
CCCCC(CC)CN1CN(CC(CC)CCCC)CC(C)(NCCNCCc2ccccc2F)C1	MIC				25 µM
CCOC(=O)Nc1cc(NC(CC)C(O)c2ccccc2)c([N+](=O)[O-])c(N)n1	inhibition		H37Rv	12.5 µg/mL	0%
CC(=O)/C=C/c1ccccc1O	MIC		H37Rv		100 µg/mL
CC(=O)Nc1nccnc1C(N)=O	inhibition	BACTEC	H37Rv	12.5 µg/mL	10%
COc1ccc(CNCCNC[C@]2(C)CCC[C@]3(C)c4ccc(C(C)C)cc4CC[C@@H]23)cc1OC	MIC				50 µM
O=C1c2ccccc2OC(c2cccc(Br)c2)C1O	EC50		H37Rv		<12.5 µg/mL
CCCCCCCCCCCCCCCCNc1ccc(CNCCNC2CCCCCCC2)cc1	MIC				50 µM
Nc1ccc(S(=O)(=O)c2ccc(Cl)cc2)c(N)c1	MIC		H37Rv		>100 µg/mL
CC(C)(C)OC(=O)NC1CC2(C=C(Cl)C(=O)C(Cl)=C2)OC1=O	MIC bound	BACTEC	H37Rv		>12.5 µg/mL
O=C1CC(c2ccccc2)Oc2ccc(Cl)cc21	EC50				>12.5 µg/mL
CCCCCCCCCCCNCCNCc1ccc(C)cc1	MIC				50 µM
O=C(/C=C/c1ccccc1)c1cc(-c2ccccc2)ccc1O	inhibition		H37Rv	12.5 µg/mL	68%
CCCCCCCCCCC[C@@H]1CCC[C@@H](C)N1	MIC		CS-R		12.8 µg/mL
O=C1CC(c2ccccc2)Oc2ccc(Br)cc21	inhibition			12.5 µg/mL	8%
Cc1nc(-c2ccc(N=Cc3ccc(N(CCOS(C)(=O)=O)CCOS(C)(=O)=O)cc3Cl)cc2)c(C)s1.Cl.Cl	inhibition	BACTEC	H37Rv	12.5 µg/mL	0%
CC(CNCCC(c1ccccc1)c1ccccc1)NC1CCCCCCC1	MIC				12.5 µM
CC1(C)CCC[C@]2(C)[C@H]3C=C4C=C(O)C(=O)C=C4O[C@@]3(C)CC[C@@H]12	inhibition	BACTEC	H37Rv	12.5 µg/mL	97%
NCC[C@H](O)C(=O)N[C@@H]1C[C@H](N)[C@@H](O[C@H]2O[C@H](CN)[C@@H](O)[C@H](O)[C@H]2O)[C@H](O)[C@H]1O[C@H]1O[C@H](CO)[C@@H](O)[C@H](N)[C@H]1O	MIC		TN810 (001/19)		>256 µg/mL
Cc1cccc2ccc(-c3ccc(-n4c(C)ccc4C)cc3)nc12	MIC		H37Rv		>100 µg/mL
COc1ccc2c(=O)c(-c3c(-c4ccccc4)oc4cc(OC)ccc4c3=O)c(-c3ccccc3)oc2c1	inhibition		H37Rv	12.5 µg/mL	0%
CCOC(=O)Nc1cc2[nH]cnc2c(NC(c2ccccc2)c2ccccc2)n1	inhibition		H37Rv	12.5 µg/mL	0%
COc1c2occc2c(OC)c2c(=O)cc(/C=C/c3ccncc3)oc12	inhibition	BACTEC	H37Rv	12.5 µg/mL	-14%
COc1cc(CNCCNC(C)Cc2c[nH]c3ccccc23)cc(OC)c1OC	MIC				50 µM
CCCNC(C)C(O)c1ccccc1.Cl	MIC		H37Rv		>100 µg/mL
COC1OC2CCN(C(=O)OCc3ccccc3)C2C1OCc1ccccc1	MIC bound	BACTEC	H37Rv		>12.5 µg/mL
Cc1cc(O)c2c(c1)oc(=O)c1ccc(C)cc12	MIC		H37Rv		25 µg/mL
CO[C@H]1/C=C/O[C@@]2(C)Oc3c(C)c(O)c4c(O)c(c5c(c4c3C2=O)NC2(CCN(CC(C)C)CC2)N=5)=NC(=O)/C(C)=C\C=C\[C@H](C)[C@H](O)[C@@H](C)[C@@H](O)[C@@H](C)[C@H](OC(C)=O)[C@@H]1C	MBC		3125 (rifampin-sensitive)		0.025 µg/mL
COc1ccc(C=O)c(C(=O)O)c1OC	MIC		H37Rv		>100 µg/mL
Clc1ccccc1CNCCNC1CCCCCCC1	MIC				25 µM
O=C(/C=C\C(=O)Nc1cccc(C2=NCCN2)c1)Nc1cccc(C2=NCCN2)c1	MIC bound	resazurin	H37Rv		>6.25 µg/mL
CO[C@H]1/C=C/O[C@@]2(C)Oc3c(C)c(O)c4c(=O)c(c5oc6cc(N7CCN(CC(C)C)CC7)cc(=O)c6nc5c4c3=C2O)NC(=O)/C(C)=C\C=C\[C@H](C)[C@H](O)[C@@H](C)[C@@H](O)[C@@H](C)[C@H](OC(C)=O)[C@@H]1C	MBC		2983 (rifampin-sensitive)		0.006 µg/mL
CCOC(=O)Nc1cc(NC(C)/C(=N/O)c2ccccc2)c([N+](=O)[O-])c(N)n1	EC50		H37Rv		>12.5 µg/mL
CS(=O)(=O)c1ccc(N)cc1	MIC		H37Rv		>100 µg/mL
c1ccc(CCCCNCCNCc2ccc3c(c2)OCO3)cc1	MIC				25 µM
Oc1c(Br)c(-c2ccccc2)c(O)c(Br)c1-c1ccccc1	MIC		H37Rv		>100 µg/mL
COc1ccc2nccc3c2c1NC(Cl)=C3	inhibition	BACTEC	H37Rv	12.5 µg/mL	3%
CC(C)(C)NC(=O)[C@@H]1C[C@@H]2CCCC[C@@H]2CN1C[C@@H](O)[C@H](Cc1ccccc1)NC(=O)C[C@H](NC(=O)c1ccc2ccccc2n1)C(N)=O	MIC		H37Rv		>100 µg/mL
CCOC(=O)Nc1cc(NC/C(=C\O)c2ccc(OC)c(OC)c2OC)c([N+](=O)[O-])c(N)n1	inhibition		H37Rv	12.5 µg/mL	0%
COc1ccc(NC(=O)/N=C2\CN(C(=O)c3c(F)cccc3F)C(=O)N2c2ccc(OC)cc2)cc1	MIC bound	BACTEC	H37Rv		>12.5 µg/mL
COc1ccc(CCNCCNCCCCc2ccccc2)cc1OC	MIC				50 µM
COc1cc2oc3c(c(=O)c2c(O)c1/C=C/C(C)C)C(C=C(C)C)Oc1cc(O)ccc1-3	MIC bound	BACTEC	H37Rv		≤12.5 µg/mL
CCOC(=O)c1ccccc1N=Nc1ccc(O)c(C(=O)O)c1	MIC		H37Rv		100 µg/mL
CCOC(=O)C1=C(C(=O)OCC)C(O)(C(=O)OCC)C(C(=O)OCC)O1	MIC bound	BACTEC	H37Rv		>12.5 µg/mL
Cc1ccc(Nc2cc(Oc3ccc(S(=O)(=O)[O-])c(C)c3)c3c4c(cc(=O)n3C)-c3ccccc3C(=O)c24)c(S(=O)(=O)[O-])c1.[Na+].[Na+]	MIC		H37Rv		>100 µg/mL
c1ccc(CCCNCCNCCN2CCOCC2)cc1	MIC				50 µM
COc1nc2c(c(O)c(C)c(=O)n2O[C@@H]2OCC(OC(C)=O)[C@H](OC(C)=O)C2OC(C)=O)c(=O)n1C	MIC bound	resazurin	H37Rv		>6.25 µg/mL
CC1(C)CC2CC(C)(CN2CCNCC(c2ccccc2)c2ccccc2)C1	MIC				37.5 µM
O=C(O)c1ccccc1Cl	MIC		H37Rv		>100 µg/mL
COc1ccc(C2C(=O)c3ccc(OC)cc3OC2c2ccccc2)cc1	MIC bound	BACTEC	H37Rv		>12.5 µg/mL
CCC(OC(CC)c1ccccc1)c1ccccc1	MIC		H37Rv		>100 µg/mL
C=C1C(=O)OC2C1C(OC(=O)/C(C)=C/C)CC(=C)C1C(O)C3OC3(C)C21O	MIC bound	BACTEC	H37Rv		>12.5 µg/mL
O=C(O)c1ccncc1C(=O)O	MIC		H37Rv		>100 µg/mL
NC(N)=NC(N)=Nc1ccc(S(=O)(=O)Nc2nccs2)cc1	MIC bound	BACTEC	H37Rv		>12.5 µg/mL
Oc1c(Cl)cc(Cl)cc1Cl	MIC		H37Rv		100 µg/mL
COc1ccc(C2Oc3cc(F)ccc3C(=O)C2OC(C)=O)cc1	EC50		H37Rv		12.5 µg/mL
S=C(SCc1cc(Cl)cc2c1OCOC2)N1CCSCC1	MIC bound	BACTEC	H37Rv		>128 µg/mL
CCOC(=O)Nc1cc(NC(=O)OCC)c2c(c1C)NC(C)C(c1ccccc1)=N2	inhibition		H37Rv	12.5 µg/mL	0%
O=C(O)c1cnc2c(ccc3[nH]cccc32)c1=O	inhibition	BACTEC	H37Rv	12.5 µg/mL	-4%
Nc1ccc(NCCNS(=O)(=O)c2ccccc2)cc1	MIC		H37Rv		25 µg/mL
Clc1ccc(CCNCCNCC(c2ccccc2)c2ccccc2)c(Cl)c1	MIC				6.25 µM
COc1ccc(C2CC(=O)c3c(OC)cc(OC)c(I)c3O2)cc1	EC50				>12.5 µg/mL
O=C(O)c1ccccc1Nc1ccccc1[N+](=O)[O-]	MIC		H37Rv		50 µg/mL
O=C(/C=C/c1ccccc1Br)c1ccccc1O	EC50		H37Rv		<12.5 µg/mL
O=C(Nc1ccccc1)c1ccccc1O	MIC		H37Rv		100 µg/mL

A second listing of 10 rows from above:

SMILES	read-out	method	strain	dose	result
CC(C)(C)OC(=O)NC1CC2(C=C(Cl)C(=O)C(Cl)=C2)OC1=O	MIC bound	BACTEC	H37Rv		>12.5 µg/mL
CS(=O)(=O)c1ccc(N)cc1	MIC		H37Rv		>100 µg/mL
O=C1CCCN1CCCNCCNCc1ccccc1Sc1ccccc1CO	MIC				12.5 µM
c1ccc(CCCCNCCNCc2ccc3c(c2)OCO3)cc1	MIC				25 µM
CCCCCCCCCCC[C@@H]1CCC[C@@H](C)N1	MIC		CS-R		12.8 µg/mL
CC(=O)Nc1nccnc1C(N)=O	inhibition	BACTEC	H37Rv	12.5 µg/mL	10%
CCOC(=O)Nc1cc(NC(C)/C(=N/O)c2ccccc2)c([N+](=O)[O-])c(N)n1	EC50		H37Rv		>12.5 µg/mL
CCOC(=O)Nc1cc(NC(CC)C(O)c2ccccc2)c([N+](=O)[O-])c(N)n1	inhibition		H37Rv	12.5 µg/mL	0%
Nc1ccc(NCCNS(=O)(=O)c2ccccc2)cc1	MIC		H37Rv		25 µg/mL
O=C(O)c1ccncc1C(=O)O	MIC		H37Rv		>100 µg/mL